PubChem BioAssay AID1259414 | Drosophila RNAi Screening Center – 2018

Test: 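Host factors increasing or decreasing Wolbachia levels in cultured fly cells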 (primary screen)
Cell system: Drosophila JW18 cells infected with Wolbachia
Reagents: long dsRNA against Drosophila genes, 0.25 µg dsRNA per well of a 384-well plate
Timing: 5 days
Challenge: cells persistently infected with Wolbachia before knock-down; no added drug
Measurement: 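Imaged fluorescence in situ signal for Wolbachia 23S rRNA per DAPI-counted host cell, given as a robust z-score within each plate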
Scale: Wolbachia per cell robust z: higher = more Wolbachia per host cell than the plate typical
Hit rule: 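Active if absolute robust z reaches 1.5 in two or more of three replicates, leaving out multi- or no-target dsRNAs, genes unexpressed in JW18 and A1 wells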
The screen tested about 24,000 reagents; below is a random part of those with a known target gene and a result. Over the whole deposit, about 1,210 (5%) are marked active. 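Inactive calls also include excluded dsRNAs with several or no targets, genes unexpressed in JW18, and well A1, regardless of score.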 Names joined by + are all predicted targets of the reagent.

gene | dsRNA | Wolbachia per cell robust z, rep 1 | Wolbachia per cell robust z, rep 2 | Wolbachia per cell robust z, rep 3 | outcome
betaTub85D (GeneID 41124) | DRSC16910 | 1.39 | 1.55 | 1 | inactive
betaTub85D (GeneID 41124) | DRSC25043 | 1.07 | 2.24 | 0.276 | inactive
CG34347 (GeneID 5740668) | DRSC14305 | -2.29 | 0.902 | 0.964 | inactive
CG34347 (GeneID 5740668) | DRSC23044 | 0.384 | 1.44 | -0.432 | inactive
CG34347 (GeneID 5740668) | DRSC24430 | 0.634 | 0.495 | -0.955 | inactive
CG13247 (GeneID 40247) | DRSC11695 | -2.58 | -0.694 | -1.5 | active
G9a (GeneID 30971) | DRSC18619 | -3.99 | -1.61 | 0.469 | active
Sgf11 (GeneID 40035) | DRSC09987 | -0.973 | 0.234 | 1.03 | inactive
loj (GeneID 38698) | DRSC09791 | -1.15 | 0.499 | 0.674 | inactive
UQCR-14 (GeneID 32586) | DRSC19870 | -1.23 | -0.331 | 0.898 | inactive
UQCR-14 (GeneID 32586) | DRSC25269 | -0.383 | 0.164 | -0.314 | inactive
dlt (GeneID 46719) | DRSC08705 | -1.72 | 0.567 | 0.615 | inactive
dlt (GeneID 46719) | DRSC26168 | -7.6 | -1.66 | -0.203 | active
CG10877 (GeneID 42432) | DRSC14274 | 0.422 | 0.0481 | 0.523 | inactive
elg1 (GeneID 39770) | DRSC10229 | 0.286 | -0.226 | -0.713 | inactive
elg1 (GeneID 39770) | DRSC27844 | 0.812 | 0.646 | 0.725 | inactive
elg1 (GeneID 39770) | DRSC41605 | 0.248 | 1.31 | 1.2 | inactive
RAF2 (GeneID 39821) | DRSC10443 | 0.136 | -0.263 | -1.83 | inactive
RAF2 (GeneID 39821) | DRSC10454 | 0.284 | 0.557 | -0.48 | inactive
RAF2 (GeneID 39821) | DRSC26436 | 1.03 | 1.1 | 0.795 | inactive
ClpP (GeneID 34402) | DRSC02806 | 0.518 | -0.641 | 1.03 | inactive
Spindly (GeneID 33578) | DRSC00430 | -0.0194 | -3.22 | 1.07 | inactive
CG43783 + orb2 | DRSC10542 | 0.963 | -1.04 | -0.276 | inactive
CG43783 + orb2 | DRSC25697 | -0.626 | -3.13 | -0.386 | inactive
CG34265 (GeneID 5740186) | DRSC38852 | 0.826 | 0.645 | 0.447 | inactive
asRNA:CR30267 (GeneID 12798141) | DRSC21628 | -0.152 | -1.4 | -0.247 | inactive
CkIIalpha-i1 (GeneID 39721) | DRSC11115 | -0.526 | -1.72 | 0.171 | inactive
CG40472 + ND-AGGG | DRSC37805 | 1.92 | 0.894 | 0.77 | inactive
icln (GeneID 36997) | DRSC07630 | 0.867 | 1.03 | 1.05 | inactive
icln (GeneID 36997) | DRSC26232 | -0.183 | 0.877 | 0.957 | inactive
Pfk (GeneID 36060) | DRSC07506 | 0.439 | -7.65 | -6.65 | active
Pfk (GeneID 36060) | DRSC27413 | -4.97 | -0.204 | -0.251 | inactive
GstD9 (GeneID 41502) | DRSC14185 | -2.42 | 0.571 | 0.231 | inactive
GstD9 (GeneID 41502) | DRSC25307 | -0.0169 | -1.54 | -0.171 | inactive
CG15865 (GeneID 32641) | DRSC19733 | -0.0104 | 0.816 | -0.891 | inactive
CG4462 (GeneID 42376) | DRSC15583 | 0.641 | -4.08 | -0.182 | inactive
CG4462 (GeneID 42376) | DRSC25650 | 0.85 | 5.03 | -0.37 | inactive
retm (GeneID 33899) | DRSC03252 | -0.565 | 0.148 | 0.371 | inactive
CAH15 (GeneID 37366) | DRSC04534 | 0.46 | -4.05 | 0.156 | inactive
CAH15 (GeneID 37366) | DRSC26087 | -0.632 | -1.12 | -0.629 | inactive
Cul4 (GeneID 35780) | DRSC07243 | 0.0661 | 2.14 | 0.655 | inactive
Cul4 (GeneID 35780) | DRSC27185 | 1.66 | 1.08 | 1.17 | inactive
Edem2 (GeneID 34714) | DRSC02877 | 0.478 | 0.525 | 1.08 | inactive
Edem2 (GeneID 34714) | DRSC26898 | 0.454 | 0.066 | -1.28 | inactive
eIF3k (GeneID 37475) | DRSC04056 | 2.11 | 0.387 | 1.44 | inactive
eIF3k (GeneID 37475) | DRSC27734 | -0.427 | -1.3 | -0.159 | inactive
hydra (GeneID 33058) | DRSC20497 | -1.08 | -0.675 | -2.44 | inactive
Ctr1A (GeneID 31601) | DRSC18336 | -0.16 | -0.433 | 0.24 | inactive
Gr85a (GeneID 117475) | DRSC12760 | 0.958 | 0.191 | -1.23 | inactive
pcs (GeneID 36674) | DRSC07042 | 0.235 | -1.87 | -0.00424 | inactive
coro (GeneID 35596) | DRSC05007 | -0.3 | 0.0559 | -0.915 | inactive
coro (GeneID 35596) | DRSC21417 | 0.436 | -1.45 | -0.301 | inactive
CG6357 (GeneID 36532) | DRSC06979 | -1.13 | -6.87 | 0.0559 | inactive
CG2685 (GeneID 31259) | DRSC18463 | 1.22 | 2.29 | 2.44 | active
CG2685 (GeneID 31259) | DRSC27295 | 0.493 | 0.655 | -0.531 | inactive
Eig71Ej (GeneID 39711) | DRSC11157 | -2.95 | 0.421 | -1.09 | inactive
Eig71Ej (GeneID 39711) | DRSC28224 | -0.203 | -0.476 | -0.466 | inactive
Hk (GeneID 31955) | DRSC17638 | 0.518 | -0.0634 | -0.879 | inactive
Hk (GeneID 31955) | DRSC24985 | 0.201 | 0.469 | 0.141 | inactive
Hk (GeneID 31955) | DRSC39129 | -4.04 | 0.332 | -0.574 | inactive
CG30156 (GeneID 246488) | DRSC04959 | 0.252 | -1.43 | -0.462 | inactive
CG14763 (GeneID 35757) | DRSC06497 | -0.449 | -0.118 | -0.82 | inactive
CG14763 (GeneID 35757) | DRSC25479 | -0.525 | -1.03 | -1.2 | inactive
bchs + CG14000 | DRSC02333 | 0.506 | 1.07 | 2.43 | inactive
CG4537 (GeneID 34306) | DRSC02756 | 0.109 | -0.515 | -2.14 | inactive
Grl62c (GeneID 5740507) | DRSC38623 | -0.774 | -2.8 | -1.72 | inactive
Poc1 (GeneID 39502) | DRSC09713 | -0.000704 | -0.684 | -0.274 | inactive
Poc1 (GeneID 39502) | DRSC28330 | 0.272 | 0.0991 | 0.512 | inactive

An excerpt from above, showing only “Wolbachia per cell robust z, rep 1”:
RAF2 (GeneID 39821) [DRSC26436]: 1.03
ClpP (GeneID 34402) [DRSC02806]: 0.518
Spindly (GeneID 33578) [DRSC00430]: -0.0194
CG43783 + orb2 [DRSC10542]: 0.963
CG43783 + orb2 [DRSC25697]: -0.626
CG34265 (GeneID 5740186) [DRSC38852]: 0.826
asRNA:CR30267 (GeneID 12798141) [DRSC21628]: -0.152
CkIIalpha-i1 (GeneID 39721) [DRSC11115]: -0.526
CG40472 + ND-AGGG [DRSC37805]: 1.92
icln (GeneID 36997) [DRSC07630]: 0.867
